A mixed list of measured activities; the numbers were collected in NIAID ChemDB.

All rows: toxicity to cultured cells; endpoint: CC50

Neighbouring rows are from separate reports. An empty or dashed field is not shown. CCn: concentration that lowers growth or viability of the cells by n%.

smiles	cells	method	result
O=C(NCCc1ccc2c(n1)NCCC2)Oc1cccc(C(F)(F)F)c1	PBMC	-	2.7 µM
CCCCC(=O)OC1CC(OC(C)C(C)C(O)C(C)C(O)C(C)C2OC(=O)/C=C/CC(O)CC(O)CC(O)CCC(C)C(O)C[C@@]3(O)O[C@H](CC(O)CC(OC(=O)CC(=O)O)CCCC(O)C4OC4C2C)C[C@H](O)[C@H]3O)OC(C)C1O	HEK-297	-	>100 µg/mL
CN1CCN(Cc2cccc(CNc3cc(=O)n(O)c4ncccc34)c2)CC1	HeLa	-	0.07 µM
NC(=S)Nc1cccc(OCCCCCOc2ccccc2-c2ccc(F)cc2)c1	Ava5-EG(delta4AB)SEAP	MTS	>1 µM
O=C(NCCc1ccc2c(n1)NCCC2)NCc1cccnc1	PBMC	-	50 µM
CCOC(=O)C1=C(CN2CC(F)(F)[C@H]3[C@@H]2CCN3C[C@H](F)C(C)(C)C(=O)O)NC(c2nc(C)cs2)=N[C@H]1c1cccc(F)c1C	HepG2.2.15	WST / absorbance	34.4 µM
NC(=S)Nc1ccc(OCCCCCOc2ccccc2)cc1	Ava5-EG(delta4AB)SEAP	MTS	>1 µM
NCc1cccc(-c2cccc(-c3cc(=O)n(O)c4ncccc34)c2)c1	HeLa	-	<100 µM
CCCCc1ccc(Nc2ncnc3c2cnn3-c2ccccc2Cl)cc1	HUH 9B	-	>50 µM
CCOC(=O)CCCCCOc1cccc(CN(C(=O)c2ccc(-c3ccc4c(c3)OCO4)cc2)C(C)C)c1	BJ	-	>20 µM
COc1cnc(-c2ccn(C)n2)c2[nH]cc(C(=O)C(=O)N3CCN(C(=O)c4ccccc4)CC3)c12	HeLa	trypan blue	≤100 µM
COc1ccc(Cl)cc1Nc1ncnc2c1cnn2-c1ccccc1	HUH 9B	-	>50 µM
O=C(NCCc1ccccn1)NCCc1ccc2c(n1)NCCC2	PBMC	-	50 µM
NS(=O)(=O)c1ccc(CCNc2ncnc3c2cnn3-c2ccccc2Cl)cc1	HUH 9B	-	>50 µM
COC(=O)C1=C(CN2CC(F)(F)[C@@H]3[C@H]2CON3C[C@@H](OC)C(C)(C)C(=O)O)NC(c2nccs2)=N[C@H]1c1ccc(F)c(F)c1F	HepG2.2.15	WST / absorbance	41.7 µM
Cc1ccc(-n2ncc3c(Nc4ccc(N5CCOCC5)c(C#N)c4)ncnc32)c(C)c1	HUH 9B	-	>50 µM
CCOC(=O)[C@@]1(C)CC[C@]2(C)CC[C@]3(C)C(=CC(=O)[C@@H]4[C@@]5(C)CC/C(=N\OCc6ccc(-c7ccccc7)cc6)C(C)(C)[C@@H]5CC[C@]43C)[C@@H]2C1	CT26	MTT	19.83 µM
Nc1cccc(CCNC(=O)Nc2cccc(F)c2)n1	PBMC	-	50 µM
CCOC(=O)C1=C(CN2CC(F)(F)[C@@H]3[C@H]2CON3CC[C@@](C)(OC)C(=O)O)NC(c2nccs2)=N[C@H]1c1cccc(F)c1C	HepG2.2.15	WST / absorbance	>100 µM
CCOC(=O)[C@@]1(C)CC[C@]2(C)CC[C@]3(C)C(=CC(=O)[C@@H]4[C@@]5(C)CC/C(=N\OCC6(C)COC6)C(C)(C)[C@@H]5CC[C@]43C)[C@@H]2C1	CT26	MTT	49.28 µM
CCOC(=O)C1=C(CN2CC(F)(F)[C@H]3[C@@H]2CON3C[C@@H](O)C(C)(C)C(=O)O)NC(c2nc(C)cs2)=N[C@H]1c1cccc(F)c1C	HepG2.2.15	WST / absorbance	31.5 µM
CCOC(=O)[C@@]1(C)CC[C@]2(C)CC[C@]3(C)C(=CC(=O)[C@@H]4[C@@]5(C)CC/C(=N\OCC6CCOCC6)C(C)(C)[C@@H]5CC[C@]43C)[C@@H]2C1	K562	MTT	21.28 µM
CCOc1ccc(Nc2ncnc3c2cnn3-c2ccccc2Cl)cc1	HUH 9B	-	46 µM
CCOC(=O)[C@@]1(C)CC[C@]2(C)CC[C@]3(C)C(=CC(=O)[C@@H]4[C@@]5(C)CC/C(=N\OCc6cccc(Cl)c6)C(C)(C)[C@@H]5CC[C@]43C)[C@@H]2C1	CT26	MTT	96.28 µM
CCc1ccc(S(=O)(=O)NCCc2ccc3c(n2)NCCC3)cc1	PBMC	-	50 µM
CCOC(=O)CC(=O)NCCc1ccc(OC)c(OC)c1	HEK 293	-	<7.5 µM
Cc1ccc(-n2ncc3c(NC(=O)Nc4ccc(Cl)cc4)ncnc32)c(C)c1	HUH 9B	-	42 µM
NC(=S)Nc1cccc(OCCCCOc2ccc(-c3ccccc3)cc2)c1	Ava5-EG(delta4AB)SEAP	MTS	>1 µM
CN(C(=O)NCCc1ccc2c(n1)NCCC2)C1CCCCC1	PBMC	-	50 µM
CC(c1ccc(-c2cc(=O)n(O)c3ncccc23)cc1)N1CCOCC1	HeLa	-	<100 µM
NC(=S)Nc1cccc(OCCCCCOc2ccc(F)cc2F)c1	Ava5-EG(delta4AB)SEAP	MTS	>1 µM
Cc1ncn(-c2ncc(F)c3c(C(=O)C(=O)N4CCN(C(=O)c5ccccc5)[C@H](C)C4)c[nH]c23)n1	HeLa	trypan blue	>100 µM
CN(C(=O)c1c(O)c2cccnc2n(O)c1=O)[C@@H]1CCNC1	HeLa	-	<100 µM
CCOC(=O)CCCCCOc1cccc(CN(C(=O)c2ccc(-c3cccc(-c4nnc(C)o4)c3)cc2)C(C)C)c1	HepG2	-	>20 µM
O=C(NCc1ccc(Cl)cc1)c1c[nH]c2ccc(C#CCO)cc2c1=O	REF	-	58 µM
Cc1ccn(-c2cccc(CCNC(=O)NCc3ccc(Cl)c(Cl)c3)n2)n1	PBMC	-	50 µM
COc1ccc(-c2c(O)c3cccnc3n(O)c2=O)cc1	HeLa	-	<100 µM
COC(=O)C1=C(CN2CC(F)(F)[C@@H]3[C@H]2CON3CC[C@@](C)(O)C(=O)O)NC(c2nccs2)=N[C@H]1c1ccc(F)c(F)c1Cl	HepG2.2.15	WST / absorbance	>100 µM
COc1cnc(-n2ccnc2)c2[nH]cc(C(=O)C(=O)N3CCN(C(=O)c4ccccc4)CC3)c12	HeLa	trypan blue	≤100 µM
CCOC(=O)[C@@]1(C)CC[C@]2(C)CC[C@]3(C)C(=CC(=O)[C@@H]4[C@@]5(C)CC/C(=N\OCc6ccccc6Cl)C(C)(C)[C@@H]5CC[C@]43C)[C@@H]2C1	K562	MTT	73.69 µM
NC(=S)Nc1cccc(NCCCCCc2ccccc2)c1	Ava5-EG(delta4AB)SEAP	MTS	>1 µM
Cc1ccc(NC(=O)NCCc2ccc3c(n2)NCCC3)cn1	PBMC	-	50 µM
CCOC(=O)c1c(O)c2cc(C(=O)NCc3cccc(OC)c3)cnc2n(O)c1=O	HeLa	-	<100 µM
O=C(O)c1cc(-c2cccs2)nc2ccccc12	HEK 293	-	>20 µM
Cc1ccc(-n2ncc3c(NC(=O)Nc4cccc(Cl)c4Cl)ncnc32)c(C)c1	HUH 9B	-	15 µM
CCCNc1ccccc1OCCCCC(=O)OCC	HEK 293	-	>20 µM
Cc1nc(-c2ncc(F)c3c(C(=O)C(=O)N4CCN(C(=O)c5ccccc5)CC4)c[nH]c23)no1	HeLa	trypan blue	>100 µM
S=C(Nc1cccc(OCCCCCc2ccccc2)c1)N1CCN(CCCc2ccccc2)C1=S	Ava5-EG(delta4AB)SEAP	MTS	>1 µM
O=S(=O)(NCCc1ccc2c(n1)NCCC2)c1ccc(OC(F)(F)F)cc1	PBMC	-	50 µM
CCOC(=O)c1c(O)c2cc(-c3cccc(C#N)c3)cnc2n(O)c1=O	HeLa	-	>100 µM
CCOC(=O)CCCCCOc1cccc(CN(C(=O)c2ccc(-c3cccc(S(C)(=O)=O)c3)cc2)C(C)C)c1	HepG2	-	>20 µM
CCOC(=O)C1=C(CN2CC(F)(F)[C@H]3[C@@H]2CCN3C[C@@H](F)C(C)(C)C(=O)O)NC(c2nc(C)cs2)=N[C@H]1c1cccc(F)c1C	HepG2.2.15	WST / absorbance	20.8 µM
CC(=O)N1CCN(c2cccc(-c3cc(=O)n(O)c4ncccc34)c2)CC1	HeLa	-	<100 µM